# Experimental data: publication PMC10998906, “Triple tandem trimer immunogens for HIV-1 and influenza nucleic acid-based vaccines” (2024)
# Assays:
# [1] = molecular target: cH125 TTT (protomer-chimeric HA TTT); assay: negative-stain EM
# [2] = molecular target: cH125/111 TTT (head-chimeric HA TTT); assay: negative-stain EM
substance,measurement,setting,value
CR9114 Fab,stoichiometry N (Fabs per trimer),[1],3
same,stoichiometry N (Fabs per trimer),[2],3
